Holding throughout (type): cell-based
For data set [1], the system named is HIV-1Ba-L. In words: Anti-HIV efficacy in human monocyte/macrophages (p24 ELISA). Particulars: TC50/IC50, HIV-1Ba-L. The method, then:
SA-101A and SA-101B were tested for antiviral activity against HIV-1 virus in peripheral blood monocytes/macrophages. Monocytes/macrophages were derived from normal HIV-1 negative donors, and cultured under conditions which promote cell survival and HIV replication. Fresh human blood was obtained commercially from Biological Specialty Corporation (Colmar, Pa.). The low passage, monocytropic, clinical isolate HIV-1Ba-L (Subtype B, R5) was obtained from the NIAID AIDS Research and Reference Reagent Program. A pre-titered aliquot of HIV 1Ba-L was removed from the freezer (−80° C.) and thawed rapidly to room temperature in a biological safety cabinet immediately before use. Phytohemagglutinin (PHA-P) was obtained from Sigma (St. Louis, Mo.) and recombinant IL-2 was obtained from R&D Systems Inc. (Minneapolis, Minn.).
Compound preparation: Compounds SA-101A and SA-101B were in powder form and solubilized in DMSO prior to use. AZT (Sigma), solubilized in sterile dH2O, was used as the positive antiviral control. The compounds were tested at a 100 μg/mL high-test concentration; AZT was tested at a 1,000 ηM high-test concentration. […]
Anti-HIV efficacy evaluation in human monocyte/macrophages. […] At assay termination, virus replication was measured by collecting cell-free supernatant samples, which were analyzed for HIV p24 antigen content using a commercially available p24 ELISA assay (Coulter). […]

Data set [2] has as its system HIV-1Ba-L. In words: PBMC antiviral assay, HIV-1Ba-L. Particulars: TC50/IC50, HIV-1Ba-L, human PBMCs. As for the experimental part:
Compounds SA-101A and SA-101B were tested for antiviral activity against HIV-1 in peripheral blood mononuclear cells (PBMC) acutely infected with the HIV-1 isolates. PBMCs were derived from normal HIV-1 negative donors, and cultured under conditions which promote cell survival and HIV replication. Fresh human blood was obtained commercially from Biological Specialty Corporation (Colmar, Pa.). The low passage clinical isolates HIV-1Ba-L, HIVIIIB, and SIVmac251 were from the NIAID AIDS Research and Reference Reagent Program. Immediately before use, pre-titered aliquot of the viruses were removed from storage in a freezer (−80° C.) and thawed rapidly to room temperature in a biological safety cabinet. Phytohemagglutinin (PHA-P) was obtained from Sigma (St. Louis, Mo.) and recombinant IL-2 was obtained from R&D Systems Inc. (Minneapolis, Minn.). […]
PMBC assay. […] Pooling (mixing) of mononuclear cells from more than one donor is used to minimize the variability observed between individual donors, which results from quantitative and qualitative differences in HIV infection and overall response to the PHA and IL-2 of primary lymphocyte populations. […]

Data set [3] deals with HIV-1IIIB. The experiment in a line: HIV-1 antiviral cytoprotection assay in CEM-SS cells. Particulars: TC50/IC50, HIV-1IIIB. As for the experimental part: Antiviral efficacy of SA-101A and SA-101B compounds were evaluated in an HIV 1 antiviral cytoprotection assay using CEM-SS cells and the laboratory adapted HIV 1IIIB virus strain.
Compound preparation. Compounds SA-101A and SA-101B were prepared in powder form and solubilized in DMSO and stored at −20° C. AZT (Sigma), solubilized in sterile H2O, was used as a positive antiviral control and was stored at 4° C. The compounds were evaluated at a high test concentration of 500 μg/mL. AZT was run in parallel at a concentration of 500 nM.
Cell Preparation. CEM-SS cells were passaged in T-75 flasks prior to use in the antiviral assay. On the day preceding the assay, the cells were split 1:2 to assure they were in an exponential growth phase at the time of infection. Total cell and viability quantification was performed using a hemacytometer and trypan blue exclusion. Cell viability was greater than 95% for the cells to be utilized in the assay. […]
Virus Preparation. […] The virus was resuspended and diluted into tissue culture medium such that the amount of virus added to each well in a volume of 50 μl was the amount determined to give approximately 90% cell killing at 6 days post-infection.
MTS Staining for Cell Viability. At assay termination, the assay plates were stained with the soluble tetrazolium-based dye MTS (Cell Titer Reagent Promega) to determine cell viability and quantify compound toxicity. […]

With `CC(=O)O[C@@]12C[C@@H](C)[C@@]3(O)[C@@H](C=C(CO)C[C@]4(O)C(=O)C(C)=C[C@@H]34)[C@@H]1C2(C)C` [SA-101A, 12-deoxyphorbol 13-acetate], the “Therapeutic Index” value was 156 in data set [1], more than 20.1 in data set [2] and more than 5.83 in data set [3].
Take `CC(=O)OC12CC(C)C3(O)C(C=C(COC(=O)CCC(=O)O)CC4(O)C(=O)C(C)=CC43)C1C2(C)C` (centres unmarked) [SA-101B, Prostratin Succinate]: the “Therapeutic Index” value was 74.8 in data set [1] (40% Human AB serum) and >1,361 in data set [2] (40% Human AB serum).
